Values of other authors as cited in patent US7652050B2, “Methods for increasing the survival of aquatic animals infected with an aquatic virus” (Laboratorio de Siagnóstico GAM S.A, priority 2001, dated 2010).

System: yellow fever virus
Settings: cited from earlier work

In the case of COc1c(C)c2c(c(O)c1C/C=C(\C)CCC(=O)O)C(=O)OC2 [Myconhenolic Acid, 6-(4-hydroxy-6-methoxy-7-methyl-3-oxo-5-phthalanyl)-4-methyl-4-hexenoic acid], the “EC50 relative to EICAR (times lower)” value is given as “ten” and the “EC50 relative to ribavirin (times lower)” value is given as 350 times.
